According to publication PMC10079225, “Discovery of Hippo signaling as a regulator of CSPG4 expression and as a therapeutic target for Clostridioides difficile disease” (2023):

Target: Clostridioides difficile TcdB1 (Clostridioides difficile) (UniProt P18177)

Work on “FZD 7 (Frizzled 7) (from UniProt O75084 33-574)” yielded a Kd of 7.71 nM.
